The numbers were not newly measured in US20260382653A1, “METHOD AND COMPOSITIONS FOR TREATING BURN WOUNDS” (published 2026), which cites them from elsewhere.

The series relates to biofilm. As to conditions: as Bi^+3; depending on the bacterial species; laboratory studies.

As for Bismuth, the “effective biofilm disruptor concentration” value is given as “about 1 mg/L”.
